PubChem BioAssay AID504761, Drosophila RNAi Screening Center, 2011

Aim: 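Fly genes whose silencing reduces dengue virus type 2 infection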 (primary screen)
System: D.Mel-2 cells from Drosophila
Reagent: long dsRNA against Drosophila genes
Challenge: infection with dengue virus type 2; dose and infection time not stated
Measurement: 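Per well on two replicate plates, imaging gave the percent of cells positive for viral envelope protein, ranked by infection, and a nuclear count of cells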
Scale: infection score: higher = more virus-infected cells; cell count: higher = more cells in the well
Rule for the call: 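Very low infection ranking in both replicate wells (chance probability at most 0.065), then a retest showing infection dropped 1.5-fold or more at p below 0.05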
Meaning of the calls: active = confirmed: knock-down lowers infection; inactive = not picked or not confirmed
The screen tested about 22,000 reagents; shown is an unselected part of those with a known target gene and a result. In the full data, 116 (0.52%) were called active. 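Calls depend on retest data that are not deposited; infection was ranked per plate without normalising between plates; the unit of the infection score is not given.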 The raw values are shown without normalisation. The record does not give: the amount of reagent, the time to read-out.

| gene knocked down | amplicon | infection score, replicate 1 | infection score, replicate 2 | cell count, replicate 1 | cell count, replicate 2 | Call |
| --- | --- | --- | --- | --- | --- | --- |
| CG8389 | DRSC07158 | 17.4 | 29.1 | 4326 | 5243 | inactive |
| CG8389 | DRSC22855 | 4.6 | 8.03 | 6261 | 5602 | inactive |
| CG8389 | DRSC28233 | 10.6 | 13 | 4151 | 4398 | inactive |
| Kdm2 | DRSC14286 | 7.6 | 11.1 | 5958 | 6331 | inactive |
| CG8630 | DRSC16441 | 1.43 | 14.8 | 6862 | 2522 | inactive |
| CG8630 | DRSC24081 | 7.86 | 4.69 | 6021 | 6203 | inactive |
| rux | DRSC18829 | 4.07 | 2.02 | 6283 | 6444 | inactive |
| CG8850 | DRSC07287 | 32.8 | 18.1 | 5935 | 5145 | inactive |
| CG8850 | DRSC25965 | 2.94 | 2.85 | 6320 | 6846 | inactive |
| swaPsi | DRSC21685 | 2.08 | 3.81 | 6054 | 6717 | inactive |
| ldbr | DRSC10933 | 3.54 | 4.96 | 6413 | 6245 | inactive |
| Vps36 | DRSC09785 | 0.66 | 0.39 | 5800 | 6103 | inactive |
| CG2909 | DRSC18241 | 10.7 | 3.5 | 6374 | 5822 | inactive |
| emb | DRSC03528 | 4.77 | 4.75 | 4084 | 4126 | inactive |
| CG32686 | DRSC17645 | 10.2 | 4.15 | 6045 | 6379 | inactive |
| CG32686 | DRSC25488 | 9.72 | 5.39 | 2110 | 5644 | inactive |
| CG14990 | DRSC08449 | 4.3 | 5.31 | 5810 | 5541 | inactive |
| CG5151 | DRSC23220 | 0.58 | 26.1 | 6061 | 4757 | inactive |
| CG5151 | DRSC29097 | 8.55 | 6.11 | 5767 | 2453 | inactive |
| Acf | DRSC14101 | 5.9 | 3.11 | 5933 | 6017 | inactive |
| Acf | DRSC29797 | 17.6 | 8.65 | 5783 | 5836 | inactive |
| CG32206 | DRSC10094 | 5.11 | 8.89 | 6148 | 5940 | inactive |
| CG32206 | DRSC10095 | 5.83 | 7.33 | 6142 | 6030 | inactive |
| CG32206 | DRSC10096 | 1.82 | 1.38 | 6657 | 6162 | inactive |
| CG32206 | DRSC11080 | 2.66 | 3.87 | 5934 | 5990 | inactive |

Reformatted: 2 of the entries above.
gene knocked down,amplicon,"infection score, replicate 1","infection score, replicate 2","cell count, replicate 1","cell count, replicate 2",Call
swaPsi,DRSC21685,2.08,3.81,6054,6717,inactive
ldbr,DRSC10933,3.54,4.96,6413,6245,inactive
